Measured values from several laboratories, pooled; numbers as filed in NIAID ChemDB.

Common to all: growth or infection tests; agent: Candida albicans; method: agar diffusion / agar; measure: zone

Zone: diameter of growth inhibition. Blank or dashed fields: not listed here. Neighbouring rows are from separate reports.

smiles,strain,tested at,value
CCc1c(Cc2ccc(Cl)cc2)nc(SCCN2CCCC2)[nH]c1=O,ATCC 10231,200 µg/disc,32 mm
O=C(Cc1ccc(-c2nc(-c3ccccc3)c(-c3ccccc3)s2)cc1)CN1CCCCC1,ATCC 10231,100 µg/mL,20 mm
CC1(C)C=C2OC(c3ccccc3O)=C(/C=C3\SC(=O)NC3=O)C=C2C(=O)C1,fungal strain,100 µg/mL,6 mm
[Cl][Zn+].[O-]c1cc2ccccc2cc1/C=N/NC(=S)N/N=C/c1cc2ccccc2cc1O,-,2 mg/mL,0 mm
COc1ccc(-c2cc(C(F)(F)F)c3c(-c4ccc(Cl)cc4)nn(-c4ccc(S(N)(=O)=O)cc4)c3n2)cc1,MTCC 227,4000 µg/mL,0 mm
O=C(CNc1nncs1)COc1ccc(-c2nc(-c3ccccc3)c(-c3ccccc3)s2)cc1,ATCC 10231,100 µg/mL,22 mm
NS(=O)(=O)c1ccc(-n2nc(-c3ccc(Cl)cc3)c3c(C(F)(F)F)cc(-c4ccc(-c5ccc6ccccc6c5)cc4)nc32)cc1,MTCC 227,4000 µg/mL,0 mm
Cc1ccc(-n2cc(-c3ccc([N+](=O)[O-])cc3)c(-c3ccnc4nncn34)n2)cc1,-,5 mg/mL,10 mm
C=CC(C)(C)c1cc(C2CC(=O)c3c(cc(O)c(CC=C(C)C)c3O)O2)c(O)cc1O,hemoculture isolate 1999,2 mg/mL,14 mm
C=C1CC[C@@H](OC(C)=O)[C@]2(C)[C@H](OC(C)=O)[C@H](OC(=O)CC(C)C)[C@H](OC(C)=O)[C@@]3(CO3)[C@H]2[C@@H](OC(C)=O)[C@@]2(O)[C@H](C)C(=O)O[C@H]2[C@H]1Cl,-,200 µg/mL,8 mm
COc1cc(C2CC(c3ccc4c(c3)OCO4)=NN2c2ccc([N+](=O)[O-])cc2)cc(OC)c1OC,DSM 70014,1 mg/mL,15 mm
O=C(CNc1ccc(Cl)cc1)COc1ccc(-c2nc(-c3ccccc3)c(-c3ccccc3)s2)cc1,ATCC 10231,100 µg/mL,23 mm
NS(=O)(=O)c1ccc(-n2nc(-c3ccccc3)c3c(C(F)(F)F)cc(-c4ccc(Cl)cc4)nc32)cc1,MTCC 227,4000 µg/mL,0 mm
O=c1[nH]c(-c2cc3ccccc3oc2=O)nc2c1C(c1cccc([N+](=O)[O-])c1)c1ccc3ccccc3c1O2,-,150 µg/mL,14 mm
CCCC[n+]1ccccc1CN1C(=O)c2cccc3c(N=Nc4ccc(N(CC)CCO)cc4)ccc(c23)C1=O,ATCC 10231,128 µg/disc,30 mm
CCN(CC)CCSc1nc(Cc2ccc(Cl)cc2)c(C)c(=O)[nH]1,ATCC 10231,200 µg/disc,<10 mm
COc1ccc(NC(=O)CSC2NC(c3ccc4c(c3)OCO4)=CC(c3cc(OC)c(OC)c(OC)c3)N2)cc1,DSM 70014,1 mg/mL,16 mm
O=C(c1cn2cnnc2nn1)c1nn(-c2ccccc2)cc1-c1ccc([N+](=O)[O-])cc1,-,5 mg/mL,9 mm
Cc1ccc(-c2nn(-c3ccc(S(N)(=O)=O)cc3)c3nc(C)cc(C(F)(F)F)c23)cc1,MTCC 227,4000 µg/mL,0 mm
O=c1[nH]c(-c2cc3ccccc3oc2=O)nc2c1C(c1ccccc1)c1ccc3ccccc3c1O2,-,100 µg/mL,14 mm
CCc1c(Cc2ccc(Cl)cc2)nc(SCCN2C(=O)c3ccccc3C2=O)[nH]c1=O,ATCC 10231,200 µg/disc,12 mm
O=C1N[C@H](Cc2ccccc2)C(=O)N2CCC[C@H]12,MTCC 277,128 µg/mL,16 mm
COc1ccc(C2=CC(c3cc(OC)c(OC)c(OC)c3)NC(=S)N2c2ccccc2)cc1OC,DSM 70014,1 mg/mL,16 mm
CC(=O)c1ccc(-c2nn(-c3ccc(C)cc3)cc2-c2ccc([N+](=O)[O-])cc2)nc1C,-,5 mg/mL,9 mm
NS(=O)(=O)c1ccc(-n2nc(-c3ccccc3)c3c(C(F)(F)F)cc(-c4ccc(-c5ccc6ccccc6c5)cc4)nc32)cc1,MTCC 227,4000 µg/mL,0 mm
Cc1nn2c(nc1=O)SC(c1ccccc1O)=C(/C=C1\SC(=O)NC1=O)C=N2,fungal strain,100 µg/mL,10 mm
COc1ccc(C2=NN(C(C)=O)C(c3cc(OC)c(OC)c(OC)c3)C2)cc1OC,DSM 70014,1 mg/mL,12 mm
c1ccc(-c2nc(-c3ccc(Nc4nncs4)cc3)sc2-c2ccccc2)cc1,ATCC 10231,100 µg/mL,25 mm
CC(=O)C1=NN(c2ccccc2)C2=Nc3nccc(-c4nn(-c5ccccc5)cc4-c4ccc([N+](=O)[O-])cc4)c3C(=O)C12,-,2.5 mg/mL,7 mm
COc1ccc(C2=CC(c3cc(OC)c(OC)c(OC)c3)NC(SCC(=O)Nc3ccc(Cl)cc3)N2)cc1OC,DSM 70014,1 mg/mL,15 mm
O=c1[nH]c(-c2cc3ccccc3oc2=O)nc2c1C(c1ccc(O)cc1)c1ccc3ccccc3c1O2,-,150 µg/mL,15 mm
COc1cc(C2C=C(c3ccc4c(c3)OCO4)NC(=S)N2)cc(OC)c1OC,DSM 70014,1 mg/mL,17 mm
Clc1ccccc1C(c1ccccc1)(c1ccccc1)n1ccnc1,ATCC 10231,200 µg/disc,38 mm
O=C(N/N=C/c1cc(-c2ccc(Cl)cc2)on1)C12CC3CC(CC(C3)C1)C2,IFO 0583,200 µg,≤10 mm
Cc1cc(C(F)(F)F)c2c(-c3ccc(Cl)cc3)nn(-c3ccc(S(N)(=O)=O)cc3)c2n1,MTCC 227,4000 µg/mL,0 mm
CCCCc1nc(/C=N/NC(=O)C23CC4CC(CC(C4)C2)C3)c(Cl)[nH]1,IFO 0583,200 µg,16 mm
NC1N=C/C(=C\c2sc(=O)[nH]c2O)C(c2ccccc2O)=N1,fungal strain,100 µg/mL,9 mm
O=C1N[C@@H](Cc2c[nH]c3ccccc23)C(=O)N2CCC[C@@H]12,MTCC 277,8 µg/mL,17 mm
C=C1CC[C@H](C)[C@@]2(C)[C@@H](OC(=O)CC(C)C)C[C@@H](OC(C)=O)[C@]3(CO3)[C@@H]2[C@H](OC(C)=O)[C@@]2(O)[C@H](C1)OC(=O)[C@@H]2C,-,200 µg/mL,17 mm
C/C=C/N1C(=S)N(CN2CCN(CC)CC2)NC1C12CC3CC(CC(C3)C1)C2,IFO 0583,200 µg/disc,<10 mm
Cc1ccc(-c2nn(-c3ccc(S(N)(=O)=O)cc3)c3nc(-c4ccccc4)cc(C(F)(F)F)c23)cc1,MTCC 227,4000 µg/mL,0 mm
C/C=C/N1C(=S)N(CN2CCN(c3ccccc3)CC2)NC1C12CC3CC(CC(C3)C1)C2,IFO 0583,200 µg/disc,<10 mm
O=C1NC(=O)/C(=C/c2coc3ccccc3c2=O)S1,fungal strain,100 µg/mL,3 mm
C/C=C/N1C(=S)N(CN2CCN(Cc3ccccc3)CC2)NC1C12CC3CC(CC(C3)C1)C2,IFO 0583,200 µg/disc,<10 mm
O=C1NC(=O)/C(=C/c2cc3c(=O)[nH]c(=O)nc-3oc2-c2ccccc2O)S1,fungal strain,100 µg/mL,6 mm
C=C[C@]1(C)CC[C@@H](O)[C@](C)(CCC=C(C)C)O1,-,20000 µg/mL,9.21 mm
CCN1C(=S)N(CN2CCN(c3ccccc3)CC2)NC1C12CC3CC(CC(C3)C1)C2,IFO 0583,200 µg/disc,<10 mm
COc1ccc(-c2cc(/C=N/NC(=O)C34CC5CC(CC(C5)C3)C4)no2)cc1,IFO 0583,200 µg,≤10 mm
Cc1c(Cc2ccc(Cl)cc2)nc(SCCCN2C(=O)c3ccccc3C2=O)[nH]c1=O,ATCC 10231,200 µg/disc,13 mm
O=C(COc1ccc(-c2nc(-c3ccccc3)c(-c3ccccc3)s2)cc1)CN1CCCCC1,ATCC 10231,100 µg/mL,19 mm
CCOC(=O)c1ccc(-c2nn(-c3ccccc3)cc2-c2ccc([N+](=O)[O-])cc2)nc1C,-,5 mg/mL,12 mm
CN(C)c1ccc(C2c3ccc4ccccc4c3Oc3nc(-c4cc5ccccc5oc4=O)[nH]c(=O)c32)cc1,-,150 µg/mL,15 mm
O=c1[nH]c(O)c(/C=C2\C=NN=C2c2ccccc2O)s1,fungal strain,100 µg/mL,7 mm

6 of the rows above, restated:

Cc1cc(C(F)(F)F)c2c(-c3ccc(Cl)cc3)nn(-c3ccc(S(N)(=O)=O)cc3)c2n1 ; strain: MTCC 227 ; tested at: 4000 µg/mL ; value: 0 mm
COc1ccc(NC(=O)CSC2NC(c3ccc4c(c3)OCO4)=CC(c3cc(OC)c(OC)c(OC)c3)N2)cc1 ; strain: DSM 70014 ; tested at: 1 mg/mL ; value: 16 mm
COc1ccc(C2=NN(C(C)=O)C(c3cc(OC)c(OC)c(OC)c3)C2)cc1OC ; strain: DSM 70014 ; tested at: 1 mg/mL ; value: 12 mm
O=C(c1cn2cnnc2nn1)c1nn(-c2ccccc2)cc1-c1ccc([N+](=O)[O-])cc1 ; tested at: 5 mg/mL ; value: 9 mm
NS(=O)(=O)c1ccc(-n2nc(-c3ccccc3)c3c(C(F)(F)F)cc(-c4ccc(Cl)cc4)nc32)cc1 ; strain: MTCC 227 ; tested at: 4000 µg/mL ; value: 0 mm
CC1(C)C=C2OC(c3ccccc3O)=C(/C=C3\SC(=O)NC3=O)C=C2C(=O)C1 ; strain: fungal strain ; tested at: 100 µg/mL ; value: 6 mm